This is an account of results in patent US20230380451A1, “MEANS AND METHODS TO DETOXIFY MYCOTOXINS” (priority 2020, published 2023).

This assay has as its system SEQ ID NO. 5 (TAM-Ac). Put plainly: Transamination (transformation) assay with TAM-Ac, QTOF-MS analysis. The class given is biochemical. Particulars: substrate with TAM-Ac, 30° C.

With “(7α)-7,15-dihydroxy-12,13-epoxytrichothec-9-en-3,8-one”, where the note is “T0 h”, the “QTOF analysis result: 3-keto-DON” value was determined as 2.69E+05, the “QTOF analysis result: 8-amino-DON” value is on record as 6.47E+02 and the “QTOF analysis result: DON” value is on record as 1.07E+03. Further, where the note is “T3 h”, the “QTOF analysis result: 3-keto-DON” value is on record as 2.62E+05, the “QTOF analysis result: 8-amino-3-keto-DON RT 0.6 min” value is reported as 8.32E+03, the “QTOF analysis result: 8-amino-3-keto-DON RT 1.2 min” value amounted to 1.03E+04 and the “QTOF analysis result: 8-amino-DON” value came to 5.56E+02. Moreover, the “QTOF analysis result: DON” value (T3 h) was determined as 1.17E+03. For the same substance, for the setting “T18 h”, the “QTOF analysis result: 3-keto-DON” value turned out to be 3.02E+05, the “QTOF analysis result: 8-amino-3-keto-DON RT 0.6 min” value amounted to 1.04E+05, the “QTOF analysis result: 8-amino-3-keto-DON RT 1.2 min” value is on record as 1.32E+05 and the “QTOF analysis result: 8-amino-DON” value is 2.70E+02. The “QTOF analysis result: DON” value (T18 h) was 1.84E+03.
